This assay addresses T1, Genome polyprotein [2420-2989,M2842K,R2963Q] (Hepatitis C virus genotype 1b (isolate BK), UniProt P26663, M2842K/R2963Q).
T1 construct: 2420-2989
Kind of assay: HCV RNA-Dependent RNA Polymerase Assay (IC50). The following applies: pH 7.5; 23 °C.

SMILES strings stand for the structures.

Consider `O=C1c2cccc3c(NCCO)ccc(c23)C(=O)N1c1cccc(Br)c1`, for which the IC50 is above 1 µM.

Values taken from BindingDB's records for doi:10.1021/jm900517t.
